Pooled drug test results. Numbers come from NIAID ChemDB, via PubChem.

All rows: enzyme or target tests; protein: CCR5

Conditions beyond the fields shown may differ between rows. Inhibition is in % at the dose shown (toxicity tests: loss of growth or viability). ICn is the concentration giving n% inhibition. Blank or dashed fields: not listed here.

structure,method,read-out,tested at,value
CC(C)c1ccc(NC(=O)N(CCCN2CCC(Cc3ccc(F)cc3)CC2)c2ccccc2)cc1,radiometric,IC50,,0.076 µM
CN1CC(C(=O)N(CCCN2CCC(Cc3ccc(F)cc3)CC2)c2ccc(Cl)c(Cl)c2)CC1=O,radiometric,inhibition,1 µM,92%
CCCCOCCOc1ccc(-c2ccc3c(c2)C=C(C(=O)Nc2ccc(S(=O)Cc4nncn4C)cc2)CCN3CC(C)C)cc1,radiometric,IC50,,0.0044 µM
CC(=O)N1CCC(C(=O)N(CCCN2CCC(Cc3ccc(F)cc3)CC2)c2ccc(C(C)C)c(Cl)c2)CC1,radiometric,IC50,,0.018 µM
c1cc2c(c(NCc3ccc(CN4CCCNCCNCCCNCC4)cc3)c1)CCCC2,fluorescence,inhibition,10 µM,56%
O=C(CCc1ccccc1)N(CCCN1CCC(Cc2ccccc2)CC1)c1ccccc1,radiometric,IC50,,0.92 µM
O=C(OCc1ccccc1)N1CCCC(C(=O)N(CCCN2CCC(Cc3ccccc3)CC2)c2ccccc2)C1,radiometric,IC50,,1.2 µM
CN1CC(C(=O)N(CCCN2CCC(Cc3ccccc3)CC2)c2cccc(Cl)c2)CC1=O,radiometric,inhibition,1 µM,82%
CCCCOCCOc1ccc(-c2ccc3c(c2)C=C(C(=O)Nc2ccc(S(=O)Cc4cccnc4)cc2)CCN3CC(C)C)cc1,radiometric,IC50,,0.015 µM
CC(C)S(=O)(=O)c1ccc(CC2CCN(CCCN(C(=O)C3CCN(S(C)(=O)=O)CC3)c3ccc(Cl)c(Cl)c3)CC2)cc1,radiometric,IC50,,0.0015 µM
O=C(Nc1ccc(Cl)cc1)N(CCCN1CCC(Cc2ccccc2)CC1)c1ccc(Cl)c(Cl)c1,radiometric,IC50,,0.062 µM
CN1CC(C(=O)N(CCCN2CCC(C(=O)c3ccc(F)cc3)CC2)c2ccccc2)CC1=O,radiometric,inhibition,1 µM,40%
O=C(c1ccccc1)N1CCC(C(=O)N(CCCN2CCC(Cc3ccccc3)CC2)c2ccccc2)CC1,radiometric,IC50,,0.033 µM
CCCCOCCOc1ccc(-c2ccc3c(c2)C=C(C(=O)Nc2ccc(S(=O)Cc4cnccn4)cc2)CCN3CC(C)C)cc1,radiometric,IC50,,0.046 µM
CN1CC(C(=O)N(CCCN2CCC(Cc3ccccc3)CC2)Cc2ccccc2)CC1=O,radiometric,inhibition,1 µM,67%
CC(=O)N1CCC(C(=O)N(CCCCN2CCC(Cc3ccc(F)cc3)CC2)c2ccc(Cl)c(Cl)c2)CC1,radiometric,IC50,,0.052 µM
c1ccc(CC2CCN(CCCNc3ccccc3)CC2)cc1,radiometric,inhibition,10 µM,30%
CN1CC(C(=O)N(CCCN2CCC(Cc3ccccc3)CC2)c2ccc(Cl)c(Cl)c2)CC1=O,radiometric,inhibition,1 µM,95%
CC(C)=CC[C@@H](O)C1=CC(=O)c2c(O)ccc(O)c2C1=O,,inhibition,1 µM,80%
CN1CC(C(=O)N(CCN2CCC(C(=O)c3ccc(F)cc3)CC2)c2ccccc2)CC1=O,radiometric,inhibition,10 µM,27%
O=S1CC2(CCN(CC[C@H](COCc3ccccc3)c3ccc(Cl)c(Cl)c3)CC2)c2ccccc21,radioligand binding / binding,inhibition,1 µM,41%
O=C1CC(C(=O)N(CCCN2CCC(Cc3ccccc3)CC2)c2ccccc2)CN1CC(F)(F)F,radiometric,inhibition,1 µM,90%